Compound potency records, mixed from different reports. Data source: NIAID ChemDB in PubChem.

All rows: whole-cell or culture tests; organism: HIV-1; cell line: MT-4; method: p24; measure: EC95

ECn: concentration that inhibits the pathogen or its effect by n%. Blank or dashed fields: not listed here. Lines come from different laboratories, so protocols vary.

smiles | strain or isolate | changes | result
O=C1c2c(O)c(=O)n(C3CCN(CC4CC4)CC3)c(=O)n2CCN1Cc1ccc(F)cc1 |  |  | <10 µM
N#Cc1cc(Cl)cc(Oc2cc(OCC(=O)Nc3ccc(S(N)(=O)=O)cc3Cl)ccc2Cl)c1 |  |  | <20 µM
CN(C)C(=O)C(=O)N(C)C1CN(S(C)(=O)=O)CCn2c1nc(C(=O)NCc1ccc(F)cc1)c(O)c2=O |  |  | <1 µM
O=C1c2c(O)c(=O)n(C3CCOC3)c(=O)n2CCN1Cc1ccc(F)cc1 |  |  | <10 µM
Cc1nnc(C(=O)N(C)C2COCCn3c2nc(C(=O)NCc2ccc(F)cc2)c(O)c3=O)o1 |  |  | <1 µM
Cn1c(COc2ccc(Cl)c(Oc3cc(Cl)cc(C#N)c3)c2)nc2ccccc21 |  |  | <20 µM
CCCCN(CCCC)CCCn1c(=O)c(O)c2n(c1=O)CCN(Cc1ccc(F)cc1)C2=O |  |  | <10 µM
CS(=O)(=O)c1ccc2c(c1)CCN2C(=O)COc1ccc(Cl)c(Oc2cc(Cl)cc(C#N)c2)c1 |  |  | <20 µM
O=C1c2c(O)c(=O)n(CCc3cccs3)c(=O)n2CCN1Cc1ccc(F)cc1 |  |  | <10 µM
N#Cc1cc(Cl)cc(Oc2cc(OCc3[nH]nc4nc(N5CCOCC5)ccc34)ccc2Cl)c1 |  |  | <20 µM
CN1CCn2c(nc(C(=O)NCc3ccc(F)cc3)c(O)c2=O)C(N(C)C(=O)C(=O)N(C)C)C1 |  |  | <1 µM
CC(C)[C@H](NC(=O)OCc1ccccn1)C(=O)N[C@@H](Cc1ccccc1)[C@@H](O)C[C@H](Cc1ccccc1)NC(=O)OCc1cccnc1 | NL4-3 | PR-L10R M46I L63P V82T I84V | 3 µM
CN1CCN(S(=O)(=O)N(C)C2COCCn3c2nc(C(=O)NCc2ccc(F)cc2)c(O)c3=O)CC1 |  |  | <1 µM
N#Cc1cc(Cl)cc(Oc2cc(Cl)cc(OCc3[nH]nc4ccccc34)c2)c1 |  |  | <20 µM
O=C(NCc1ccc(F)cc1)c1nc2n(c(=O)c1O)CCOCC2 |  |  | <50 µM
O=C1c2c(O)c(=O)n(C3CCCCCC3)c(=O)n2CCN1Cc1ccc(F)cc1 |  |  | <10 µM

For reference, 2 entries again:

smiles | strain or isolate | changes | result
N#Cc1cc(Cl)cc(Oc2cc(OCC(=O)Nc3ccc(S(N)(=O)=O)cc3Cl)ccc2Cl)c1 |  |  | <20 µM
CN1CCn2c(nc(C(=O)NCc3ccc(F)cc3)c(O)c2=O)C(N(C)C(=O)C(=O)N(C)C)C1 |  |  | <1 µM